Source: PubChem BioAssay AID1053175 (ICCB-Longwood Screening Facility, Harvard Medical School, 2014)
The list shows a part of the results, in another mix than the full data. Active and inactive are the calls of the source.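 The calls were made as follows: active = OD600 absorbance below the run mean of sample wells minus 3.6 SD, in any replicate (cut at about 0.56 in these data); inactive = the rest.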

Assay: E. coli growth inhibition, primary screen, OD600 (AID 1053175)
Details: Escherichia coli growth, OD600, 23 h; active compounds read low
For `O=[N+]([O-])c1cc([N+](=O)[O-])c(-c2ccn[nH]2)s1`, the OD600 absorbance was active: 0.366.
With `O=C(O)c1ccccc1[As](=O)(O)O` the OD600 absorbance was active: 0.396.
For `O=c1c2cc([N+](=O)[O-])ccc2[nH]c2c([N+](=O)[O-])cc([N+](=O)[O-])cc12`, the OD600 absorbance was active: 0.449.
